A mixed list of measured activities; the numbers were collected in NIAID ChemDB.

Shared fields: whole-cell or culture tests; organism: Rhinovirus; read-out: EC50

Rows are shuffled and stem from different studies. ECn is the concentration giving n% inhibition of infection, replication or growth.

smiles | strain | cell line | method | value
Fc1cccc(Cn2cnc3c(Nc4cccc(F)c4)nc(C(F)(F)F)nc32)c1 | Serotype 23 | M-HELA | plaque count | 1.1 µM
CN(C)c1nc(C(F)(F)F)nc2c1ncn2Cc1ccc(C(F)(F)F)cc1 | Serotype 13 | M-HELA | plaque count | >8 µM
CC(=O)Nc1ccc(Cn2cnc3c(Nc4cccc(F)c4)nc(C(F)(F)F)nc32)cc1 | Serotype 5 | M-HELA | plaque count | >80 µM
Cc1cc(CCCOc2c(C)cc(-c3noc(C(F)(F)F)n3)cc2C)on1 | Isolate 45 | OHIO HELA-I | cytopathic effect / visual reading | >10 µg/mL
CN(C)c1nc(C(F)(F)F)nc2c1ncn2Cc1ccc(F)cc1 | Serotype 2 | M-HELA | plaque count | >8 µM
CSc1nsc(-c2ccc(OCCOc3ccc(C#N)cc3)cc2)c1C#N | Serotype 39 (group B) | HELA-OHIO | cytopathic effect | >2 µM
CSc1nsc(-c2ccc(O)cc2)c1C#N | Serotype 29 (group B) | HELA-OHIO | cytopathic effect | >10 µM
CSc1nsc(-c2ccc(OCCc3ccccc3)cc2)c1C#N | Serotype 86 (group A) | HELA-OHIO | cytopathic effect | 2 µM
Cc1ccccc1Cn1cnc2c(N(C)C)nc(C(F)(F)F)nc21 | Serotype 4 | M-HELA | plaque count | >8 µM
CSc1nsc(-c2ccc(OC(C)(C)C)cc2)c1C#N | Serotype 14 (group A) | HELA-OHIO | cytopathic effect | >40 µM
CCn1c2c(c(=O)c3cc(C(C)C)ccc31)Cc1ccccc1-2 | 1A/E28 | HELA-OHIO | cytopathic effect | 2.6 µg/mL
CN(C)c1nc(C(F)(F)F)nc2c1ncn2Cc1ccc(S(C)(=O)=O)cc1 | Serotype 14 | M-HELA | plaque count | >8 µM
CCOC(=O)c1ccc(OCCCOc2ccc(-c3snc(SC)c3C#N)cc2)cc1 | Serotype 2 (group B) | HELA-OHIO | cytopathic effect | >2 µM
CCO/N=C/c1ccc(OCCC2CCN(c3ccc(Cl)nn3)CC2)cc1 | 2268-CV37 (ICAM-1 receptor group 60) | KB | neutral red | 0.258 µM
O=[N+]([O-])c1ccc(Cn2cnc3c(Nc4cccc(F)c4)nc(C(F)(F)F)nc32)cc1 | Serotype 1B | M-HELA | plaque count | 1.5 µM
Cc1ccc(Cn2cnc3c(N(C)C)nc(C(F)(F)F)nc32)cc1 | Serotype 16 | M-HELA | plaque count | >5 µM
CCn1c(-c2cccc(F)c2)c(C)c(=O)c2cc(C(C)C)ccc21 | TYPE 1B/B632 | HELA-OHIO | cytopathic effect | 0.64 µg/mL
COc1ccc(Cn2cnc3c(N(C)C)nc(C(F)(F)F)nc32)cc1C | Serotype 5 | M-HELA | plaque count | >8 µM
CSc1nsc(-c2ccc(OCCCOc3ccc([N+](=O)[O-])cc3)cc2)c1C#N | Serotype 2 (group B) | HELA-OHIO | cytopathic effect | >1 µM
Cc1c(-c2ccccc2)n(-c2cccc(F)c2)c2ccc(C(C)C)cc2c1=O | TYPE 89 | HELA-OHIO | cytopathic effect | 0.034 µg/mL
CCOC(=O)c1ccc(OCCC2CCN(c3ccc(C)nn3)CC2)cc1 | Serotype 59 (group B) | HELA-OHIO | cytopathic effect | 0.03 µM
Cc1cc(Cn2cnc3c(N(C)C)nc(C(F)(F)F)nc32)ccc1Cl | Serotype 18 | M-HELA | plaque count | >8 µM
CSc1nsc(-c2ccc(OCCCCOc3ccc([N+](=O)[O-])cc3)cc2)c1C#N | Serotype 45 (group A) | HELA-OHIO | cytopathic effect | >0.5 µM
CSc1nsc(-c2ccc(OCc3ccccc3)cc2)c1C#N | Serotype 39 (group B) | HELA-OHIO | cytopathic effect | 3 µM
Cc1c(-c2ccccc2)n(-c2ccc(F)cc2)c2ccc(C(C)C)cc2c1=O | 8/MRH | HELA-OHIO | cytopathic effect | >2 µg/mL
CSc1nsc(-c2ccc(OCCCOc3ccccc3)cc2)c1C#N | Serotype 2 (group B) | HELA-OHIO | cytopathic effect | >20 µM

A second listing of 2 rows from above:

smiles	strain	cell line	method	value
CN(C)c1nc(C(F)(F)F)nc2c1ncn2Cc1ccc(C(F)(F)F)cc1	Serotype 13	M-HELA	plaque count	>8 µM
CCO/N=C/c1ccc(OCCC2CCN(c3ccc(Cl)nn3)CC2)cc1	2268-CV37 (ICAM-1 receptor group 60)	KB	neutral red	0.258 µM